Compound potency records, mixed from different reports. Data source: NIAID ChemDB in PubChem.

Shared fields: tests in culture; species: Mycobacterium smegmatis

A number after MIC or MFC names an inhibition level or a share of isolates. Blank or dashed fields: not listed here. ECn is the concentration giving n% inhibition of infection, replication or growth. Conditions beyond the fields shown may differ between rows. Inhibition is in % at the dose shown (toxicity tests: loss of growth or viability).

smiles	method	strain or isolate	tested at	read-out	value
CCCC(CCC)NCCNC(CCC)CCC		ATCC 607		EC50	<60 µg/mL
NNC(=O)c1ccncc1		MC^2 847		MIC	30 µg/mL
CCC(CC)NCCNC(CC)CC		ATCC 607		EC50	>250 µg/mL
O=C(O)c1cn(C2CC2)c2cc(N3C[C@@H]4CCCN[C@@H]4C3)c(F)cc2c1=O		G89C mutant		MIC99	2 µg/mL
COc1cc2c(cc1OC)CN(c1c(F)cc3c(=O)c(C(=O)O)cn4c3c1OCC4C)CC2	agar			MIC99	13.75 µM
CCCCCCCCCCCCCC#CC(=O)OCCO		mc2651		MIC99	13.6 µM
CC1COc2c(N3CCC4(CC3)OCCO4)c(F)c([N+](=O)[O-])c3c(=O)c(C(=O)O)cn1c23	agar			MIC99	3.47 µM
CCCCCCCCCCCCCCCCCC#CC(=O)O		mc22389		MIC99	>200 µM
CC(C)NCCNC(C)C		ATCC 607	60 µg/mL	inhibition	100%
CCCCCCCCCCCCCCCC#CC(=O)OCCO		mc2155		MIC99	2.3 µM
CC(C)(C)NCCNC(C)(C)C		ATCC 607		EC50	<500 µg/mL
C[C@H]1COc2c(N3CCc4ccccc4C3C(=O)NC(C)(C)C)c(F)cc3c(=O)c(C(=O)O)cn1c23	agar			MIC99	50.66 µM
COc1ccc(-c2csc(N3N=C(c4cccs4)CC3c3ccc4c(c3)OCO4)n2)cc1		ATCC 607		EC50	>1000 µg/mL
CCSCCCCCCCCCCCCC#CC(=O)O		mc2651		MIC99	76.3 µM
CC(C)N(C)CCN(C)C(C)C		ATCC 607		EC50	>250 µg/mL
CCC1CN(c2c(F)cc3c(=O)c(C(=O)O)cn(C4CC4)c3c2OC)CCN1		G89C mutant		MIC99	0.5 µg/mL
CC(C)(C)NCCCNC(C)(C)C		ATCC 607		EC50	>1000 µg/mL
COc1c(N2C[C@@H]3CCCN[C@@H]3C2)c(F)cc2c(=O)[nH]c(=O)n(C3CC3)c12		A91V mutant		MIC99	200 µg/mL
C[C@H]1COc2c(N3CCC4(CC3)OCCO4)c(F)cc3c(=O)c(C(=O)O)cn1c23	agar			MIC99	3.86 µM
CCC1CN(c2cc3c(cc2F)c(=O)c(C(=O)O)cn3C2CC2)CCN1		WT		MIC99	0.062 µg/mL
CCCCCCCCCCCCCCCCCC#CCC#CC(=O)O		mc2155		MIC99	>200 µM

The last 3 rows once more:

C[C@H]1COc2c(N3CCC4(CC3)OCCO4)c(F)cc3c(=O)c(C(=O)O)cn1c23 ; method: agar ; read-out: MIC99 ; value: 3.86 µM
CCC1CN(c2cc3c(cc2F)c(=O)c(C(=O)O)cn3C2CC2)CCN1 ; strain or isolate: WT ; read-out: MIC99 ; value: 0.062 µg/mL
CCCCCCCCCCCCCCCCCC#CCC#CC(=O)O ; strain or isolate: mc2155 ; read-out: MIC99 ; value: >200 µM